Compound potency records, mixed from different reports. Data source: NIAID ChemDB in PubChem.

Shared fields: whole-cell or culture tests; organism: Candida albicans; read-out: MIC

Two numbers with a dash give a range or band.

{"structure": "CO[C@@H]1O[C@@H]2O[C@]3(C)CC[C@H]4[C@H](C)CC[C@@H]([C@H]1C)C24OO3", "strain or isolate": "ATCC 90028", "result": ">50 µg/mL"}
{"structure": "c1ccc(COc2cccc3cccnc23)cc1", "result": "75 µg/mL"}
{"structure": "Cc1c(N2C[C@@H]3C[C@H]2CN3)c(F)cn2c(=O)c(C(=O)O)cc(C3CC3)c12", "strain or isolate": "CCH442", "result": "0.2 µg/mL"}
{"structure": "C1CCC(C[C@H]2CN=C3N(CCC45CC6CC(CC(C6)C4)C5)[C@@H](CC4CCCCC4)CN32)CC1", "strain or isolate": "ATCC 10231", "result": "5–8 µg/mL"}
{"structure": "S=C([S][Sn]([S]C(=S)N1CCCC1)([c]1ccccc1)[c]1ccccc1)N1CCCC1", "strain or isolate": "Drug-resistant isolate", "result": "25 µg/mL"}
{"structure": "Nc1[nH]c(=O)ncc1F", "strain or isolate": "ATCC 90028", "result": "0.5 µg/mL"}
{"structure": "CCOc1cccc2ccc[n+](CC)c12.[I-]", "result": ">100 µg/mL"}
{"structure": "CCC(C)n1ncn(-c2ccc(N3CCN(c4ccc(OC[C@H]5CO[C@](Cn6cncn6)(c6ccc(Cl)cc6Cl)O5)cc4)CC3)cc2)c1=O", "strain or isolate": "A28976", "result": "16 µg/mL"}
{"structure": "COc1cccc2c1C(=O)C(Sc1ccc(C)cc1)=CC2=O", "result": "2 µg/mL"}
{"structure": "Cc1ncc([N+](=O)[O-])n1CCO", "strain or isolate": "18 isolates", "result": ">200 µg/mL"}
{"structure": "Cc1c(N2CCC[C@@H]2CO)c(F)cn2c(=O)c(C(=O)O)cc(C3CC3)c12", "strain or isolate": "CCH442", "result": ">100 µg/mL"}
{"structure": "O=C(Oc1cccc2cccnc12)c1ccccc1", "result": ">100 µg/mL"}
{"structure": "CO[C@H]1O[C@@H]2O[C@@]3(C)CC[C@H]4[C@H](C)CC[C@@H]([C@H]1C)[C@@]24OO3", "strain or isolate": "ATCC 90028", "result": ">50 µg/mL"}
{"structure": "C1CCC(C[C@H]2CN3C(=NC[C@H]3CC3CCCCC3)N2CCC23CC4CC(CC(C4)C2)C3)CC1", "strain or isolate": "ATCC 10231", "result": "5–8 µg/mL"}
{"structure": "COCOC1CCN(c2c(F)cn3c(=O)c(C(=O)O)cc(C4CC4)c3c2C)CC1", "strain or isolate": "CCH442", "result": ">100 µg/mL"}
{"structure": "CCN1C2=NC[C@H](Cc3ccccc3)N2C[C@H]1C1CCCCC1", "strain or isolate": "ATCC 10231", "result": ">64 µg/mL"}
{"structure": "Cc1c(N2CC3CCCN(C)C3C2)c(F)cn2c(=O)c(C(=O)O)cc(C3CC3)c12.Cl", "strain or isolate": "CCH442", "result": ">100 µg/mL"}
{"structure": "CCC[CH2][Sn]([CH2]CCC)([S]C(=S)N1CCCC1)[S]C(=S)N1CCCC1", "strain or isolate": "ATCC 18804", "result": "30 µg/mL"}
{"structure": "CC(C)(C)C1CCC(CN2C3=NC[C@H](CC4CCCCC4)N3C[C@H]2C2CCCCC2)CC1", "strain or isolate": "ATCC 10231", "result": "10–16 µg/mL"}
{"structure": "C=C1C(=O)O[C@@H]2O[C@]3(C)CC[C@H]4[C@H](C)CC[C@@H]1C24OO3", "strain or isolate": "ATCC 90028", "result": ">50 µg/mL"}
{"structure": "Cc1c(N2CCC(N3CCCCC3)CC2)c(F)cn2c(=O)c(C(=O)O)cc(C3CC3)c12", "strain or isolate": "CCH442", "result": ">100 µg/mL"}
{"structure": "C[C@H]1[C@@H](Oc2ccc(S)cc2)O[C@@H]2O[C@]3(C)CC[C@H]4[C@H](C)CC[C@@H]1C24OO3", "strain or isolate": "ATCC 90028", "result": ">50 µg/mL"}
{"structure": "S=C([S][Sn]([c]1ccccc1)([c]1ccccc1)[c]1ccccc1)N1CCCC1", "strain or isolate": "Drug-resistant isolate", "result": "1.25 µg/mL"}
{"structure": "COc1cccc2ccc[n+](C)c12.[I-]", "result": ">100 µg/mL"}
{"structure": "Cc1ccc(SC2=CC(=O)c3c(O)cccc3C2=O)cc1", "result": "4 µg/mL"}
{"structure": "CC(C)(C)C1CCC(CN2C3=NC[C@@H](CC4CCCCC4)N3C[C@@H]2C2CCCCC2)CC1", "strain or isolate": "ATCC 10231", "result": "16–32 µg/mL"}
{"structure": "O=C1C(Sc2ccc(Cl)cc2)=C(Sc2ccc(Cl)cc2)C(=O)c2c(O)cccc21", "result": "4 µg/mL"}
{"structure": "CO[C@H]1OC(=O)C[C@@]2(O)[C@@]13O[C@@H]3C1OC(=O)[C@@]3(C)CCC[C@@]2(C)[C@@H]13", "strain or isolate": "ATCC 90029", "result": ">64 µg/mL"}
{"structure": "COc1cccc2c1C(=O)C=C(Sc1cccc(F)c1)C2=O", "result": "32 µg/mL"}
{"structure": "Cc1c(N2CCC(C(C)N)C2)c(F)cn2c(=O)c(C(=O)O)cc(C3CC3)c12.Cl", "strain or isolate": "CCH442", "result": "0.01 µg/mL"}
{"structure": "S=C([S][Sn]([Cl])([Cl])[S]C(=S)N1CCCC1)N1CCCC1", "strain or isolate": "ATCC 18804", "result": "50 µg/mL"}
{"structure": "CC1=C(N2CC[C@H](CNCCF)C2)C(F)=CN2C(=O)C(C(=O)O)=CC(C3CC3)C12", "strain or isolate": "CCH442", "result": ">100 µg/mL"}
{"structure": "CCN(CC)C(=S)[S][Sn]([c]1ccccc1)([c]1ccccc1)[c]1ccccc1", "strain or isolate": "Drug-resistant isolate", "result": "5 µg/mL"}
{"structure": "N[C@@H]1CN(c2cc3c(C4CC4)cc(C(=O)O)c(=O)n3cc2F)CC12CC2", "strain or isolate": "CCH442", "result": ">100 µg/mL"}
{"structure": "Cc1c(SCCN)c(F)cn2c(=O)c(C(=O)O)cc(C3CC3)c12.O=C(O)C(F)(F)F", "strain or isolate": "CCH442", "result": ">100 µg/mL"}
{"structure": "C[C@H]1[C@H](O)[C@@H](C)/C=C/C=C/C=C/C=C/C=C/C=C/C=C/[C@H](O[C@@H]2O[C@H](C)[C@@H](O)[C@H](N)[C@@H]2O)C[C@@H]2O[C@](O)(C[C@@H](O)C[C@@H](O)CC[C@H](O)[C@@H](O)C[C@@H](O)CC(=O)O[C@H]1C)C[C@H](O)[C@H]2C(=O)O", "strain or isolate": "ATCC 90028", "result": "0.06 µg/mL"}
{"structure": "CCCCN1C2=NC[C@H](Cc3ccccc3)N2C[C@@H]1Cc1ccccc1", "strain or isolate": "ATCC 10231", "result": ">250 µg/mL"}
{"structure": "CC1=C(N2CC(N)C3(CCC3)C2)C(F)=CN2C(=O)C(C(=O)O)=CC(C3CC3)C12", "strain or isolate": "CCH442", "result": ">100 µg/mL"}
{"structure": "CNC1CN(c2c(F)cn3c(=O)c(C(=O)O)cc(C4CC4)c3c2C)CC1O.Cl", "strain or isolate": "CCH442", "result": ">100 µg/mL"}
{"structure": "CC[C@H](N)[C@@H]1CCN(c2c(F)cn3c(=O)c(C(=O)O)cc(C4CC4)c3c2C)C1.Cl", "strain or isolate": "CCH442", "result": "12.5 µg/mL"}
{"structure": "O=C1C=C(Sc2ccccc2F)C(=O)c2c(O)cccc21", "result": "64 µg/mL"}
{"structure": "CCNC1CCN(c2c(F)cn3c(=O)c(C(=O)O)cc(C4CC4)c3c2C)C1.Cl", "strain or isolate": "CCH442", "result": ">100 µg/mL"}
{"structure": "CCN1C2=NC[C@H](Cc3ccccc3)N2C[C@H]1CCCN=C(N)N", "strain or isolate": "ATCC 10231", "result": ">250 µg/mL"}
{"structure": "Cc1c(N2CCC(CN)C2)c(F)cn2c(=O)c(C(=O)O)cc(C3CC3)c12.Cl", "strain or isolate": "CCH442", "result": ">100 µg/mL"}
{"structure": "CCN1C2=NC[C@H](C(C)(C)C)N2C[C@@H]1Cc1ccccc1", "strain or isolate": "ATCC 10231", "result": ">250 µg/mL"}
{"structure": "CCC(C)n1ncn(-c2ccc(N3CCN(c4ccc(OC[C@H]5CO[C@](Cn6cncn6)(c6ccc(Cl)cc6Cl)O5)cc4)CC3)cc2)c1=O", "strain or isolate": "ATCC 24433", "result": "0.06 µg/mL"}

Lines come from different laboratories, so protocols vary.